A mixed list of measured activities; the numbers were collected in NIAID ChemDB.

Shared fields: tests in culture; species: Mycobacterium tuberculosis

MIC bound: limit read from a one-dose screen. Blank or dashed fields: not listed here. Two numbers with a dash give a range or band. A number after MIC or MFC names an inhibition level or a share of isolates. ECn is the concentration giving n% inhibition of infection, replication or growth. Rows are shuffled and stem from different studies. Percent inhibition refers to the dose given; in toxicity tests it is the harm to the cells.

SMILES	dose	conditions	changes	method	read-out	strain or isolate	result
CCCCN(CCCC)N(CCC)C(=O)COc1cc2c(O)c3c(O)c(C)c4c(c13)C(=O)[C@@](C)(O/C=C/[C@H](OC)[C@@H](C)[C@@H](OC(C)=O)[C@H](C)[C@H](O)[C@H](C)[C@@H](O)[C@@H](C)/C=C/C=C(/C)C(=O)N2)O4					MIC	H37Rv	0.09 µg/mL
OC1C2COc3nc4ccccc4n3C(O2)C1O	6.25 µg/mL				inhibition	H37Rv	10%
CCCCCCCCN1C(=O)CC(C)C1=O					MIC	Clinical isolate (isoniazid-resistant)	≤20 µg/mL
CC(=O)OCC1=C(C(=O)O)N2C(=O)[C@@H](NC(=O)Cc3cccs3)[C@H]2SC1					MIC	Isolate 2	>16 µg/mL
CC(=O)N1CCSC(C(=O)Nc2ccccc2)=C1C				BACTEC	MIC bound	H37Rv	>6.25 µg/mL
COC(=O)c1cc(C2CCCCC2)c2c(C3CCCCC3)cccc2n1					MIC	H37Rv	6.25 µg/mL
O=C(c1ccncc1)N(/N=C/c1cccc([N+](=O)[O-])c1)C(=O)c1cnccn1					MIC	H37Rv	1 µg/mL
COc1cc2oc3cc(=O)cc4oc(-c5ccccc5)cc(c2c2c1CCC(c1ccccc1)O2)c43				BACTEC	MIC bound	H37Rv	>12.5 µg/mL
O=C(/C=C/c1ccc(Cl)cc1)Oc1ccc(/C=C2\CCC/C(=C\c3ccc(OC(=O)/C=C/c4ccc(Cl)cc4)cc3)C2=O)cc1					EC50	H37Rv	>12.5 µg/mL
NC[C@@H]1O[C@H](O[C@H]2[C@@H](O)[C@H](O[C@@H]3[C@@H](O)[C@H](N)C[C@H](N)[C@H]3O[C@H]3O[C@H](CO)[C@@H](O)C[C@H]3N)O[C@@H]2CO)[C@H](N)[C@@H](O)[C@@H]1O[C@H]1O[C@H](CO)[C@@H](O)[C@H](O)[C@@H]1O					EC50	H37Rv (ethambutol-resistant)	25–50 µg/mL
COc1ccc(C(=O)N/N=C(\N)SC)cc1					MIC	H37Rv	>100 µg/mL
CC1(C)S[C@@H]2[C@H](NC(=O)[C@H](N)c3ccc(O)cc3)C(=O)N2[C@H]1C(=O)O					MIC	Isolate 2	16 µg/mL
CC(C)Cn1c(-c2ccc(O)cc2)cs/c1=N\NC(=O)COc1cnccn1					MIC	H37Rv	12 µg/mL
CC(CC(=O)NN)Nc1ccc2ccccc2c1					EC50	Drug-resistant	5 µg/mL
CC1(C)C2CCC(CN3C(=O)c4ccccc4C3=O)C1C2					MIC	H37Ra	≤20 µg/mL
O=C(c1ccncc1)N(/N=C/c1cccc(Oc2ccccc2)c1)C(=O)c1cnccn1					MIC	H37Rv	>16 µg/mL
COC(=O)/C=C(C)/C=C/c1cc(C(C)=O)c(C)o1				BACTEC	MIC	H37Rv	≥12.5 µg/mL
CO[C@H]1/C=C/O[C@@]2(C)Oc3c(C)c(O)c4c(=O)c(c5oc6cc(N7CCN(CC(C)C)CC7)cc(=O)c6nc5c4c3=C2O)NC(=O)/C(C)=C\C=C\[C@H](C)[C@H](O)[C@@H](C)[C@@H](O)[C@@H](C)[C@H](OC(C)=O)[C@@H]1C					MIC	28 (streptomycin-resistant)	0.0078 µg/mL
CC1(C)OC2COC(c3[nH]nc(C(N)=O)c3C(=O)N=[N+]=[N-])C2O1				BACTEC	MIC bound	H37Rv	>12.5 µg/mL
NNC(=O)c1ccncc1				fluorescence / absorbance	EC90	H37Rv	0.62 µM
CCc1ccc(-c2cc(CN3CCOCC3)c(C)n2-c2ccc(F)cc2)cc1			G253E D46G		MIC	H37Rv DR5	0.66 µM
CCOC(=O)c1[nH]c2ccc(N)cc2c1C				resazurin	MIC90	H37Rv	>100 µM
CC(Nc1ccc2ccccc2c1)C(=O)NN	1 µg/mL				inhibition	Drug-resistant	100%
NC(=S)NNC(=O)c1ccc(F)cc1					MIC	H37Rv	>100 µg/mL
O=C(Cc1cccs1)N[C@@H]1C(=O)N2C(C(=O)[O-])=C(C[n+]3ccccc3)CS[C@H]12					MIC	Isolate 2	8 µg/mL
O=C(O)c1cnc(Cl)cn1					MIC	BDDIS 20	256 µg/mL
O=C(O)c1ccnc2ccccc12					MIC	H37Rv	>6.25 µg/mL
O=C(COc1cnccn1)N/N=c1\scc(-c2ccc(Cl)cc2Cl)n1-c1ccc(Cl)cc1[N+](=O)[O-]					MIC	H37Rv	3.6 µg/mL
NC(=S)NNC(=O)c1ccc(Cl)cc1					MIC	H37Rv	>100 µg/mL
COC1=NOC2C=COC12				BACTEC	MIC bound	H37Rv	>12.5 µg/mL
COC(=O)c1cc(C2C3CC4CC(C3)CC2C4)nc2ccccc12	6.25 µg/mL				inhibition	H37Rv	49%
COc1ccc(/C=N/N(C(=O)c2ccncc2)C(=O)c2cnccn2)cc1					MIC	H37Rv	1 µg/mL
CCCCS(=O)(=O)Nc1ccc2[nH]c(C#N)c(C)c2c1			V123A DG167-resistant	resazurin	MIC90	DRM167 16x3	100 µM
CCN(CC)CCCN=c1cc2n(-c3ccc(Cl)c(Cl)c3)c3ccccc3nc-2cc1Nc1ccc(Cl)c(Cl)c1		multidrug-resistant			MIC	29	≤0.06 µg/mL
O=C(O)c1cc(C2CCCCC2)nc2ccccc12	6.25 µg/mL				inhibition	H37Rv	10%
CC1COCCOC(=O)c2cccc(n2)C(=O)OCCOCC(C)O1				BACTEC	MIC bound	H37Rv	>12.5 µg/mL
COc1ccc(/C=N/N(C(=O)c2ccncc2)C(=O)c2cnccn2)c(O)c1					MIC	9 isolates (resistant)	>16 µg/mL
Cn1c(O)c(N=NC(=O)Cc2c[nH]c3ccccc23)c2ccccc21				BACTEC	MIC	H37Rv	≥12.8 µg/mL
CCCCCCCCCN1C(=O)CC(SCCNC(=O)c2ccc(OCCCCCC)cc2)C1=O					MIC	H37Ra	≤20 µg/mL
O=C1CCCC/C1=C\c1ccc(OC(=O)c2ccc(Cl)cc2)cc1	12.5 µg/mL				inhibition	H37Rv	56%
CCCCS(=O)(=O)Nc1ccc2[nH]c(C(N)=O)c(C)c2c1			P206T DG167-resistant	resazurin	MIC90	DRM167 32x2	>100 µM
Cc1ccc(C(=O)Oc2ccc(/C=C3\CCC/C(=C\c4ccc(OC(=O)c5ccc(C)cc5)cc4)C3=O)cc2)cc1	12.5 µg/mL				inhibition	H37Rv	21%
CCCCS(=O)(=O)Nc1ccc2[nH]c(C(=O)N[C@@H](C)c3ccccc3)c(C)c2c1				resazurin	MIC90	H37Rv	6.2 µM
CCCCCCCCCN1C(=O)CCCC1=O					MIC	Clinical isolate (isoniazid-resistant)	≤20 µg/mL
CCN(CC)N(CC)C(=O)COc1cc2c(O)c3c(O)c(C)c4c(c13)C(=O)[C@@](C)(O/C=C/[C@H](OC)[C@@H](C)[C@@H](OC(C)=O)[C@H](C)[C@H](O)[C@H](C)[C@@H](O)[C@@H](C)/C=C/C=C(/C)C(=O)N2)O4					MIC	H37Rv	0.15 µg/mL
CCn1cc(C(=O)O)c(=O)c2cc(F)c(N3CCN(C)CC3)cc21					MIC90	55 isolates (RMP INH-R)	16 µg/mL
CCCCn1c(-c2ccc(Cl)cc2)cs/c1=N\NC(=O)COc1cnccn1					MIC	H37Rv	7.6 µg/mL
COc1ccc(-c2cc(CN3CCOCC3)c(C)n2-c2ccc(C)cc2)cc1					MIC90	H37Rv	65.86 µM
O=C1C2C3CCC(O3)C2C(=O)N1N1C(=O)C2C3CCC(O3)C2C1=O	12.5 µg/mL			BACTEC	inhibition	H37Rv	5%
CCCCCCCCCN1C(=O)CC(C)(SCCN)C1=O					MIC	Clinical isolate (isoniazid-resistant)	≤20 µg/mL
C=C1C(=O)O[C@@H]2C[C@@]3(C)CCC[C@H](C)C3=C[C@H]12				BACTEC	MIC bound	H37Rv	>12.5 µg/mL
C=C1CC(=O)N(CCCCCCCCC)C1=O					MIC	H37Ra	≤20 µg/mL
CCCCS(=O)(=O)Nc1ccc2[nH]c(C(=O)N3CCCCC3)c(C)c2c1				resazurin	MIC90	H37Rv	6.25 µM
CC(=O)Nc1ccc(/C=N/NC(N)=S)cc1					MIC	Isolate D (drug-resistant)	20 µg/mL
S=C(Nc1ccccc1)c1ccccn1				BACTEC	MIC	H37Rv	1.56 µg/mL
CCCCCCCCCN1C(=O)CC(SCCNC(=O)c2ccc([N+](=O)[O-])cc2)C1=O					MIC	H37Rv	≤20 µg/mL
O=C(O)/C=C/C(=O)NNC(=O)/C=C/C(=O)O				BACTEC	MIC bound	H37Rv	>12.5 µg/mL
Cc1c(OCC(F)(F)F)ccnc1CSc1nc2ccccc2[nH]1		clinical isolate		resazurin	MIC90		0.52 µM
C=CCS/C(N)=N/NC(=O)c1ccc(OC)cc1					MIC	H37Rv	>100 µg/mL
O=C1C=CC(=NC2=C(Cl)C(=O)c3ccccc3C2=O)C=C1				BACTEC	MIC bound	H37Rv	≤12.5 µg/mL
O=C(/C=C/c1ccc(Cl)cc1)Oc1ccc(/C=C2\CCCCC2=O)cc1	12.5 µg/mL				inhibition	H37Rv	0%
Cc1ccc(-c2cc(CN3CCOCC3)c(C)n2-c2ccc(F)cc2)cc1			V681I V581A N365S		MIC	H37Rv DR4	5.4 µM
COc1cc(/C=N/N(C(=O)c2ccncc2)C(=O)c2cnccn2)ccc1O					MIC	9 isolates (sensitive)	2–4 µg/mL
COC(=O)Cc1cc(C2CCCCC2)nc2c(C3CCCCC3)cccc12	6.25 µg/mL				inhibition	H37Rv	4%
Clc1ccccc1CNCC1CCC(CNCc2ccccc2Cl)CC1	6.25 µg/mL			resazurin	inhibition	H37Rv	57%
O=C(/C=C/c1ccc(Cl)c(Cl)c1)Oc1ccc(/C=C2\CCCCC2=O)cc1	12.5 µg/mL				inhibition	H37Rv	47%
CN(C(=O)c1ccco1)C(=S)N1CCN(c2ccccc2)CC1	6.25 µg/mL			resazurin	inhibition	H37Rv	-17%
O=C(/C=C/c1ccccc1)Oc1ccc(/C=C2\CCCCC2=O)cc1	12.5 µg/mL				inhibition	H37Rv	45%
NNC(=O)c1cc2c3ccccc3ncc2c2ccccc12				BACTEC	MIC bound	H37Rv	>12.5 µg/mL
CCCCn1c(-c2ccc(C)cc2)cs/c1=N\NC(=O)COc1cnccn1					MIC	H37Rv	20 µg/mL
COC(=O)c1cc(C2CCCCC2)c2ccccc2n1					MIC	H37Rv	>6.25 µg/mL
CCCCCCCCCN1C(=O)CCC1=O					MIC	H37Ra	≤20 µg/mL
Cc1ccc(C(=O)N/N=C(\N)SCc2cccc(Cl)c2)cc1					MIC	H37Rv	>100 µg/mL
CCCNc1nc2c(s1)c1c(O)c3c(O)c(C)c4c(c32)C(=O)[C@@](C)(O/C=C/[C@H](OC)[C@@H](C)[C@@H](OC(C)=O)[C@H](C)[C@H](O)[C@H](C)[C@@H](O)[C@@H](C)/C=C/C=C(/C)C(=O)N1)O4				BACTEC	MIC	H37Rv	≤0.1 µg/mL
COC(=O)c1cc(C2CCCC2)nc2c(C3CCCC3)cccc12					MIC	H37Rv	>6.25 µg/mL
O=C(O)[C@H]1/C(=C/CO)O[C@@H]2CC(=O)N21					MIC	H37Rv	>16 µg/mL
COC(=O)NC1(C(=O)O)CCCC1				resazurin	MIC bound	H37Rv	>6.25 µg/mL
CCCN(C(=O)COc1cc2c(O)c3c(O)c(C)c4c(c13)C(=O)[C@@](C)(O/C=C/[C@H](OC)[C@@H](C)[C@@H](OC(C)=O)[C@H](C)[C@H](O)[C@H](C)[C@@H](O)[C@@H](C)/C=C/C=C(/C)C(=O)N2)O4)N(CC)CC					MIC	H37Rv	0.15 µg/mL
COc1cc2nc3occc3c(OC)c2c2c1OC(C)(C)C=C2				resazurin	MIC bound	H37Rv	>6.25 µg/mL
C[C@H]1CN(c2c(F)cc3c(=O)c(C(=O)O)cn(C4CC4)c3c2OC(F)F)CCN1					MIC90	100 isolates	0.5 µg/mL
CCOC(=O)C1=NN(c2ccccc2)C(=O)C1N=Nc1ccc(S(=O)(=O)Nc2ccccn2)cc1	12.5 µg/mL			BACTEC	inhibition	H37Rv	13%
CO[C@H]1/C=C/O[C@@]2(C)Oc3c(C)c(O)c4c(O)c(cc(OCC(=O)N(C)N5CCOCC5)c4c3C2=O)NC(=O)/C(C)=C\C=C\[C@H](C)[C@H](O)[C@@H](C)[C@@H](O)[C@@H](C)[C@H](OC(C)=O)[C@@H]1C					MIC	H37Rv	0.18 µg/mL
CCCc1ccc(-n2c(-c3ccc(Cl)cc3)cc(CN3CCOCC3)c2C)cc1					MIC90	H37Rv	29.7 µM
CC1COc2c(N3CCN(C)CC3)c(F)cc3c(=O)c(C(=O)O)cn1c23					MIC90	100 isolates	>4 µg/mL
O=C(CN1C(=O)CCC1=O)Nc1ccc(N2CCCCC2)cc1					MIC	H37Ra	≤20 µg/mL

The last 9 rows once more:

COC(=O)NC1(C(=O)O)CCCC1 ; method: resazurin ; read-out: MIC bound ; strain or isolate: H37Rv ; result: >6.25 µg/mL
CCCN(C(=O)COc1cc2c(O)c3c(O)c(C)c4c(c13)C(=O)[C@@](C)(O/C=C/[C@H](OC)[C@@H](C)[C@@H](OC(C)=O)[C@H](C)[C@H](O)[C@H](C)[C@@H](O)[C@@H](C)/C=C/C=C(/C)C(=O)N2)O4)N(CC)CC ; read-out: MIC ; strain or isolate: H37Rv ; result: 0.15 µg/mL
COc1cc2nc3occc3c(OC)c2c2c1OC(C)(C)C=C2 ; method: resazurin ; read-out: MIC bound ; strain or isolate: H37Rv ; result: >6.25 µg/mL
C[C@H]1CN(c2c(F)cc3c(=O)c(C(=O)O)cn(C4CC4)c3c2OC(F)F)CCN1 ; read-out: MIC90 ; strain or isolate: 100 isolates ; result: 0.5 µg/mL
CCOC(=O)C1=NN(c2ccccc2)C(=O)C1N=Nc1ccc(S(=O)(=O)Nc2ccccn2)cc1 ; dose: 12.5 µg/mL ; method: BACTEC ; read-out: inhibition ; strain or isolate: H37Rv ; result: 13%
CO[C@H]1/C=C/O[C@@]2(C)Oc3c(C)c(O)c4c(O)c(cc(OCC(=O)N(C)N5CCOCC5)c4c3C2=O)NC(=O)/C(C)=C\C=C\[C@H](C)[C@H](O)[C@@H](C)[C@@H](O)[C@@H](C)[C@H](OC(C)=O)[C@@H]1C ; read-out: MIC ; strain or isolate: H37Rv ; result: 0.18 µg/mL
CCCc1ccc(-n2c(-c3ccc(Cl)cc3)cc(CN3CCOCC3)c2C)cc1 ; read-out: MIC90 ; strain or isolate: H37Rv ; result: 29.7 µM
CC1COc2c(N3CCN(C)CC3)c(F)cc3c(=O)c(C(=O)O)cn1c23 ; read-out: MIC90 ; strain or isolate: 100 isolates ; result: >4 µg/mL
O=C(CN1C(=O)CCC1=O)Nc1ccc(N2CCCCC2)cc1 ; read-out: MIC ; strain or isolate: H37Ra ; result: ≤20 µg/mL